# Assay results taken from article PMC12171682, “Saarvienin A—A Novel Glycopeptide with Potent Activity against Drug‐Resistant Bacteria” (Angewandte Chemie (International Ed. in English), 2025).
# Columns and labels:
# Settings in all cases: broth microdilution, cation-adjusted Mueller-Hinton Broth II, ~4 × 10⁵ CFU/mL, 37 °C, 24 h; mean of three independent biological replicates, each in technical triplicate
# P. aeruginosa PA14 = tested on: P. aeruginosa PA14
# S. enterica DSM5569 = tested on: S. enterica DSM5569
# K. pneumoniae DSM 681 = tested on: K. pneumoniae DSM 681
# E. coli ATCC 25922 = tested on: E. coli ATCC 25922
# S. aureus ATCC 29213 = tested on: S. aureus ATCC 29213
# S. epidermidis DSM 28765 = tested on: S. epidermidis DSM 28765
SMILES,"MIC, P. aeruginosa PA14 (P. aeruginosa PA14)","MIC, S. enterica DSM5569 (S. enterica DSM5569)","MIC, K. pneumoniae DSM 681 (K. pneumoniae DSM 681)","MIC, E. coli ATCC 25922 (E. coli ATCC 25922)","MIC, S. aureus ATCC 29213 (S. aureus ATCC 29213)","MIC, S. epidermidis DSM 28765 (S. epidermidis DSM 28765)"
"CN[C@@]1(C)C[C@H](O[C@@H]2[C@H](O)C[C@H](O[C@H]3[C@H](C)O[C@@H](O[C@H]4[C@H](O[C@H]5[C@H](C)O[C@@H](Oc6ccc(C[C@@H](O)C(=O)N[C@H]7CNC(=O)NC[C@@H](C(=O)N[C@H](Cc8ccccc8)C(=O)O)NC(=O)[C@H]([C@H](C)c8c[nH]c9ccc(Cl)cc89)NC7=O)cc6)C[C@]5(C)N)O[C@@H](C)[C@H](O)[C@H]4O)C[C@]3(C)NC)O[C@H]2C)O[C@@H](C)[C@@H]1OC [Saarvienin A, saarvienin A]",>64 µg/mL,>64 µg/mL,>64 µg/mL,>64 µg/mL,0.25 µg/mL,0.25 µg/mL
"CN[C@H](CC(C)C)C(=O)N[C@H]1C(=O)N[C@@H](CC(N)=O)C(=O)N[C@H]2C(=O)N[C@H]3C(=O)N[C@H](C(=O)N[C@H](C(=O)O)c4cc(O)cc(O)c4-c4cc3ccc4O)[C@H](O)c3ccc(c(Cl)c3)Oc3cc2cc(c3O[C@@H]2O[C@H](CO)[C@@H](O)[C@H](O)[C@H]2O[C@H]2C[C@](C)(N)[C@H](O)[C@H](C)O2)Oc2ccc(cc2Cl)[C@H]1O [Vancomycin, vancomycin]",–,>64 µg/mL,>64 µg/mL,>64 µg/mL,2 µg/mL,–
